Measurements taken from PMC4222200 (Journal of immunology (Baltimore, Md. : 1950), 2010).

Tested on: 1G4 CTL clone
Assay: Intracellular Ca2+ measurements in 1G4 CTL clone
Format: cell-based

For “influenza matrix58-66 peptide: influenza virus matrix 58–66 peptide: Ca2+/FACS negative control, positive control for A2 binding”, the “Ca2+ response pattern” value was “No significant Ca^2+ response”.
